According to publication PMC6213309 (International Journal of Molecular Sciences, 2018):

Test: peptide made by a vendor
Details: whole synthesis, analytical reverse-phase HPLC

For FWRRWQWRRRWF-NH2, the “final HPLC purity” value was 97.31%.
With “PEPTIDE1{F.P.R.R.W.Q.W.R.R.P.F.[am]}$$$$V2.0” the “final HPLC purity” value was 97.58%.
With “PEPTIDE1{K.C.R.R.W.Q.W.R.M.K.K.[am]}$$$$V2.0” the “final HPLC purity” value was 95.81%.
With “PEPTIDE1{K.K.R.R.W.Q.W.R.R.K.K.[am]}$$$$V2.0” the “final HPLC purity” value was 95.21%.
In the case of “PEPTIDE1{K.W.R.R.W.Q.W.R.R.W.K.[am]}$$$$V2.0”, the “final HPLC purity” value is reported as 96.94%.

HELM strings list residues between dots; [ac] is acetyl, [am] amide, other brackets name non-standard units.
